The values that follow are results of earlier work, collected in US5872104A, “Combinations and methods for reducing antimicrobial resistance” (Oridigm Corporation, priority 1994, dated 1999).

The structures appear in SMILES notation. Some results are limits rather than exact numbers.

The series concerns human retrovirus. The conditions noted are these: in vitro cytotoxicity vs activity; cited from earlier work.
For the compound `Nc1ncnc2c1ncn2C[C@H](O)CO` [(S)-DHPA, 9(S)-(2,3-dihydroxypropyl)adenine], the activity index is listed as above 3. Regarding `Nc1ncnc2c1ncn2[C@@H]1C=C(CO)[C@@H](O)[C@H]1O` [NPA, neplanocin A], the activity index was above 20. Take `Nc1nccc2c1ncn2[C@@H]1C[C@H](CO)[C@@H](O)[C@H]1O` [carbocyclic 3-deazaadenosine, carbocyclic-3-deazaadenosine]: the activity index is recorded as 70.
